Target: SARS-CoV-2 spike protein, original Wuhan strain (SARS-CoV-2 (Wuhan strain))
Assay: cell-based or functional assay

Binder	Lowest neutralizing concentration (pM)
Re6H06 (VHH) VHH: QVQLVESGGGLVQPGGSLRLSCAASGVTLDYYAIGWFRQAPGKEREGVSCTSSSDGSTYYADSVKGRFTISRDNAKNTVYLQMNSLKPEDTGVYYCAVVPQTYYGGKYYSQCTANGMDYWGKGTLVTVSS	170 pM
Re9B09 (VHH, also called ReB09) VHH: QVQLVESGGGLVQPGGSLRLSCAASGFTLDYYAIGWFRQAPGKEREGVSRISSSDGSTDYADSVKGRFTISRDNAKNTVYLQMNSLKPEDTAVYYCATVPGTYYSGNWYYTWHPEAVDYWGKGTQVTVSS	500 pM

From patent US20250019422A1 (MAX PLANCK GESELLSCHAFT ZUR F RDERUNG DER WISSENSCHAFTEN E V, published 2025)
